In the data set the target is T1, Glucocorticoid receptor C-terminal fragment containing DNA-binding domain (GR) (UniProt P06536).
T1 sequence (looked up, limits assumed): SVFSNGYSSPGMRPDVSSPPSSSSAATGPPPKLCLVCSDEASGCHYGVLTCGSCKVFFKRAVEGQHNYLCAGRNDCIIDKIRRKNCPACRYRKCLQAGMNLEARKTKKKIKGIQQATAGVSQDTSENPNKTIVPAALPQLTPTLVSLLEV
Kind of data set: EMSA. The conditions noted are these: 0-25 ng protein, 1 ng probe, 25 C 30 min; text says 57 nt oligonucleotide; purified recombinant protein; protein details: described as C-terminal GR (Alroy et al. 1992); label: 32P.

Results on one sequence are retold here after patent US5665873.

For at least one entry, the source does not settle the construct or the ends of the probe. Protein sequences can lack the tags named with them.

As to “GTTCGCACTTTGTCCTAATAATATATATATTAGGACAAAGTGCGAACG (double strand) [HSV-1 oriL GRE probe (L)]”, the binding result was “binds”.
